Compound potency records, mixed from different reports. Data source: NIAID ChemDB in PubChem.

All rows: toxicity to cultured cells; cell line: MT-4; read-out: CC50

CCn is the concentration with n% toxicity to the cells. Rows are shuffled and stem from different studies.

smiles | value
O=c1nc(N=CN2CCOCC2)ccn1[C@H]1C[C@H](CO)[C@@H](CO)O1 | >300 µM
CCCCCCCCCCCCCCOCC(COCCCCCCCCCCCCCC)CO[C@@H]1O[C@H](COS(=O)(=O)O)[C@H](OS(=O)(=O)O)[C@H](OS(=O)(=O)O)[C@H]1OS(=O)(=O)O | >100 µg/mL
CC(=O)N1C[C@@H](O)[C@@H](Cc2ccccc2)N(Cc2ccc(O)cc2)C(=O)N1Cc1ccc(O)cc1 | 100 µM
Cc1cccc(N2C(=O)CSC2c2c(F)cccc2Cl)c1 | 32.44 µM
CCc1c(Cc2ccc(Cl)cc2)n(COCc2ccccc2)c(=O)[nH]c1=O | >100 µM
CCc1ncn(Nc2cccc(C)c2)c1-c1ccccc1 | 27.87 µM
Nc1ccn([C@H]2CO[C@@H](CO)S2)c(=O)n1 | >100 µM
CCCCCCCCCCCCOCCO[C@@H]1O[C@H](COS(=O)(=O)O)[C@@H](O[C@@H]2O[C@H](COS(=O)(=O)O)[C@H](OS(=O)(=O)O)[C@H](OS(=O)(=O)O)[C@H]2OS(=O)(=O)O)[C@H](OS(=O)(=O)O)[C@H]1OS(=O)(=O)O | >100 µg/mL
O=C1CSC(c2c(F)cccc2Cl)N1Cc1ccco1 | 97.76 µM
CC(C)C[C@@H](CO)NC(=O)[C@]12CCC(C)(C)C=C1[C@H]1CC[C@@H]3[C@@]4(C)CC[C@H](OC(=O)CC(C)(C)C(=O)O)C(C)(C)[C@@H]4CC[C@@]3(C)[C@]1(C)CC2 | 23.5 µM
O=c1nc(N=CN2CCCCC2)ccn1[C@H]1C[C@H](CO)[C@@H](CO)O1 | >300 µM
Nc1ncnc2c1ncn2[C@H]1C=C[C@@H](OCP(=O)(O)O)O1 | >500 µM
CCCCCCCCCCCCCCCCCC(=O)N[C@@H](CO[C@@H]1O[C@H](COS(=O)(=O)O)[C@@H](OS(=O)(=O)O)[C@H](OS(=O)(=O)O)[C@H]1OS(=O)(=O)O)C(=O)NCCCCCCCCCCCCCC | <100 µg/mL
CCCN(C=Nc1ccn([C@H]2C[C@H](CO)[C@@H](CO)O2)c(=O)n1)CCC | >300 µM
O=C1CSC(c2c(F)cccc2Cl)N1c1cc(F)cc(F)c1 | 33.45 µM
Cc1cc(C)cc(S(=O)(=O)c2c(C(=O)NC(C)C(N)=O)[nH]c3ccc(Cl)cc23)c1 | 4 µM
CCCCCCCCCCCCCC(=O)NCC(OCC)OCC | >40 µM
CC(C)CC(=O)N1C[C@@H](O)[C@@H](Cc2ccccc2)N(Cc2ccc(O)cc2)C(=O)N1Cc1ccc(O)cc1 | 56.2 µM
NC1=NS(=O)(=O)N([C@H]2CS[C@@H](CO)O2)C=C1 | >100 µg/mL
Nc1nc2c(ncn2[C@H]2C=C[C@@H](CO)[C@@H]2CO)c(=O)[nH]1 | >100 µg/mL
N#C/C(=C\C(c1ccccc1)c1ccccc1)n1nnc2ccccc21 | >100 µM
CCCCCCCCCCCCCCOCC(COCCCCCCCCCCCCCC)CO[C@@H]1O[C@H](COS(=O)(=O)O)[C@@H](OS(=O)(=O)O)[C@H](OS(=O)(=O)O)[C@H]1OS(=O)(=O)O | >100 µg/mL
S=c1[nH]c(-c2ccccc2)c(-c2ccccc2)n1Nc1cccc(Cl)c1 | 36.31 µM
O=C1C=CN([C@H]2CS[C@@H](CO)O2)S(=O)(=O)N1 | >100 µg/mL
NC(=O)/C(=C\c1ccc(C(F)(F)F)cc1)n1nnc2ccccc21 | 4 µM
CCc1cccc(N2C(=O)CSC2c2c(Cl)cccc2Cl)c1 | 28.95 µM
Cc1ncn(Nc2ccc(F)cc2)c1-c1ccccc1 | 30.82 µM
CCCCCCCCCCCCOCCO[C@@H]1O[C@H](COS(=O)(=O)O)[C@@H](OS(=O)(=O)O)[C@H](OS(=O)(=O)O)[C@H]1OS(=O)(=O)O | >100 µg/mL
CC(C)CN(C[C@@H](O)[C@H](Cc1ccccc1)NC(=O)O[C@H]1C2COC3OCC1C3C2)S(=O)(=O)c1ccc2nc(NC3CC3)sc2c1 | 23 µM
COc1cc2nc(-c3c(F)cccc3F)n(Cc3c(F)cccc3F)c2cc1Cc1c(F)cccc1F | 31.35 µM
O=C(CCCO)N1C[C@@H](O)[C@@H](Cc2ccccc2)N(Cc2ccc(O)cc2)C(=O)N1Cc1ccc(O)cc1 | >100 µM
CCCCC1(CCc2cccc(NS(=O)(=O)c3ccc(C(F)(F)F)cn3)c2)COC(=O)C(C(CC)c2cccc(NS(=O)(=O)c3ccc(C(F)(F)F)cn3)c2)=C1O | 33.7 µM
O=C1CSC(c2ccc(Cl)cc2)N1Cc1ccco1 | 43.54 µM
CCCN1C(=O)N(CCC)N(C(=O)C(C)(C)C)C[C@@H](O)[C@H]1Cc1ccccc1 | 63 µM
COc1cc(C2SCC(=O)N2Cc2ccco2)cc(OC)c1OC | 358 µM
CC1=CN([C@@H]2CS[C@@H](CO)O2)S(=O)(=O)NC1=O | >100 µg/mL
C=C(C)[C@@H]1CC[C@]2(C(=O)O)CC[C@]3(C)[C@H](CC[C@@H]4[C@@]5(C)CC[C@H](OC(=O)CC(C)(C)C(=O)O)C(C)(C)[C@@H]5CC[C@]43C)[C@@H]12 | >5 µM
N#C/C(=C/c1cccc2ccccc12)n1nnc2ccccc21 | 5 µM
Cc1cc(C)cc(S(=O)(=O)c2c(C(=O)NC(C)C(=O)NN)[nH]c3ccc(Cl)cc23)c1 | 20 µM
Cc1ncn(Nc2cccc(Cl)c2)c1-c1cccc(Br)c1 | 16.41 µM
O=C(NCc1ccc(F)cc1)C1C(=O)N(O)C(=O)c2ccccc21 | >125 µM
O=C(CO)N1C[C@@H](O)[C@@H](Cc2ccccc2)N(Cc2ccc(O)cc2)C(=O)N1Cc1ccc(O)cc1 | 71.6 µM
CN(C)C=Nc1ccn([C@H]2C[C@H](CO)[C@@H](CO)O2)c(=O)n1 | >300 µM
Cc1[nH]c(=S)n(Nc2cccc(Cl)c2)c1C(=O)O | 266 µM
COc1cc(OC)c(C2SCC(=O)N2Cc2ccco2)cc1OC | 263 µM
O=c1nc(N=CN2CCCC2)ccn1[C@H]1C[C@H](CO)[C@@H](CO)O1 | >300 µM
Cc1ccc2c(c1)nc(-c1c(F)cccc1F)n2Cc1c(F)cccc1F | 31.95 µM
NC1=NS(=O)(=O)N([C@@H]2CS[C@@H](CO)O2)C=C1 | >100 µg/mL
O=C(O)c1ccc2nc(-c3c(F)cccc3F)n(Cc3c(F)cccc3F)c2c1 | 117 µM
N#C/C(=C\c1cccc(C#N)c1)n1nnc2ccccc21 | 1.5 µM
Cc1cc(C)cc(Nn2c(-c3ccccc3)c(C)[nH]c2=S)c1 | 194 µM
Cc1cc(C)cc(S(=O)(=O)c2c(C(=O)NCC(N)=O)[nH]c3ccc(Cl)cc23)c1 | 30 µM
CN(C)C=Nc1ccn([C@H]2C[C@H](COC(=O)N[C@@H](Cc3ccccc3)C(=O)NC(=O)OC(C)(C)C)[C@@H](COC(=O)N[C@@H](Cc3ccccc3)C(=O)NC(=O)OC(C)(C)C)O2)c(=O)n1 | >300 µM
N#C/C(=C\c1cc(Cl)cc(Cl)c1)n1nnc2ccccc21 | 2 µM
CC1=CN([C@H]2CS[C@@H](CO)O2)S(=O)(=O)NC1=O | >100 µg/mL
CCCCC1(CCc2cccc(NS(=O)(=O)c3ccc(F)cc3)c2)COC(=O)C(C(CC)c2cccc(NS(=O)(=O)c3ccc(F)cc3)c2)=C1O | 52.4 µM
CC(C)CN(C[C@@H](O)[C@H](Cc1ccc(F)cc1)NC(=O)O[C@H]1C2COC3OCC1C3C2)S(=O)(=O)c1ccc2nc(NC3CC3)sc2c1 | 11 µM
CCCCC1(CCc2cccc(NS(=O)(=O)c3ccc(C#N)cn3)c2)COC(=O)C(C(CC)c2cccc(NS(=O)(=O)c3ccc(C#N)cn3)c2)=C1O | 65.7 µM
Cc1ncn(Nc2cccc(Cl)c2)c1C | 214 µM